According to patent publication US20170029451A1, “BRANCHED CHAIN ACYCLIC NUCLEOSIDE PHOSPHONATE ESTERS AND METHODS OF SYNTHESIS AND USES THEREOF” (CHIMERIX, INC., priority 2013, published 2017):

Key:
Conditions in all cases: CC50/EC50, human foreskin fibroblast cells
[1] = system: Herpes Simplex Virus 1 (Strain E-377); assay: Plaque reduction assay, HSV-1 in human foreskin fibroblast cells; format: cell-based
[2] = system: Cowpox Virus (Strain Brighton); format: cell-based
[3] = system: Vaccinia Virus (Strain Copenhagen); format: cell-based
HCMV (Strain AD169) = assay: Plaque reduction assay, HCMV AD169 in human foreskin fibroblast cells; format: cell-based, Human Cytomegalovirus (HCMV)

Row | SMILES | HSV-1 SI50 [1] | CPXV SI50 [2] | VACV SI50 [3] | HCMV SI50 (HCMV (Strain AD169))
1 | Nc1nc2c(ncn2COCCO)c(=O)[nH]1 [Acyclovir, reference compound] | >45 | – | – | –
2 | CC(C)CCCCCCCCCCCCCCOCCCOP(=O)(O)COC(CO)Cn1ccc(=O)[nH]c1=O (centres unmarked) [Compound 12] | 1 | 1 | 1 | >961
3 | Nc1nc(O)c2ncn(COC(CO)CO)c2n1 [Ganciclovir, reference compound] | – | – | – | >67
4 | Nc1ccn(C[C@@H](CO)OCP(=O)(O)O)c(=O)n1 [Cidofovir, reference compound] | – | >10 | >13 | –
